Results of unrelated studies side by side (data: NIAID ChemDB).

All rows: tests on isolated targets; organism: HIV-1; protein: Integrase

Lines come from different laboratories, so protocols vary.

| structure | endpoint | method | value |
|---|---|---|---|
| CC(C)C[C@H](NC(=O)[C@H](CC(C)C)NC(=O)[C@H](Cc1cnc[nH]1)NC(=O)[C@H](CCC(=O)O)NC(=O)[C@H](CC(C)C)NC(=O)[C@@H](N)Cc1cnc[nH]1)C(=O)N[C@@H](Cc1ccccc1)C(=O)O | IC50 | strand transfer | >500 µM |
| CC(C)(C)C(=O)c1cn2c(c(O)c1=O)C(=O)N(Cc1ccc(F)c(Cl)c1)CC2 | IC50 | ELISA | <0.01 µM |
| Cc1nnc(C(=O)N2CCC3(CC2)OCCCn2c3nc(C(=O)NCc3ccc(F)cc3-n3ncnc3C)c(O)c2=O)o1 | Ki | binding / radiometric | 0.003–0.05 µM |
| Oc1c(C(=S)NCc2ccc(F)cc2)occc1=S | IC50 | strand transfer | 7.3 µM |
| O=C(O)/C=C/c1ccc(N=Nc2c(S(=O)(=O)O)cc3cc(S(=O)(=O)O)c(N=Nc4ccc(/C=C/C(=O)O)cc4)c(O)c3c2O)cc1 | IC50 | 3′ processing | 1.8 µM |
| CNC(=O)CNC(=O)c1cn2ccn(Cc3cccc(Cl)c3)c(=O)c2c(O)c1=O | IC50 | ELISA | 0.01–0.1 µM |
| O=C(O)CCc1ccc(N=Nc2c(S(=O)(=O)O)cc3cc(NC(=O)Nc4ccc5c(O)c(N=Nc6ccc(CCC(=O)O)cc6)c(S(=O)(=O)O)cc5c4)ccc3c2O)cc1 | IC50 | strand transfer | 1 µM |
| O=c1c(-c2nccs2)cn2ccn(CCCc3c(F)cccc3Cl)c(=O)c2c1O | IC50 | ELISA | <0.01 µM |
| O=C(O)/C=C/c1ccc(N=Nc2c(S(=O)(=O)O)cc3cc(NC(=O)C(=O)Nc4ccc5c(O)c(N=Nc6ccc(/C=C/C(=O)O)cc6)c(S(=O)(=O)O)cc5c4)ccc3c2O)cc1 | IC50 | 3′ processing | 5 µM |
| O=c1c(-c2ccccc2Cl)cn2ccn(Cc3cccc(Cl)c3)c(=O)c2c1O | IC50 | ELISA | <0.01 µM |
| CCOC(=O)c1cn(C)c2cc(N3CCN(c4ccccn4)CC3)c(N)cc2c1=O | IC50 | strand transfer | >100 µM |
| O=C(NCc1ccc(F)cc1)c1nc[nH]c(=O)c1O | IC50 | 3′ processing | >100 µM |
| CC(C)N(C)C(=O)c1cc(=O)c(O)c2n1CCN(Cc1ccc(Cl)c(Cl)c1)C2=O | IC50 | ELISA | 0.01–0.1 µM |
| O=C(Nc1ccc2c(O)c(N=Nc3c(F)c(F)c(C(=O)O)c(F)c3F)c(S(=O)(=O)O)cc2c1)Nc1ccc2c(O)c(N=Nc3c(F)c(F)c(C(=O)O)c(F)c3F)c(S(=O)(=O)O)cc2c1 | IC50 | 3′ processing | 0.2 µM |
| O=C(O)C(=O)/C=C(\O)c1cccc(NC(=O)c2cc([N+](=O)[O-])cc([N+](=O)[O-])c2O)c1 | IC50 | 3′ processing / gel | 8 µM |
| O=Cc1cn(Cc2cccc(Cl)c2)c(=O)c2c(O)c(=O)ccn12 | IC50 | ELISA | 0.01–0.1 µM |
| O=C(Nc1ccc2c(O)c(N=Nc3ccc(Br)cc3Br)c(S(=O)(=O)O)cc2c1)Nc1ccc2c(O)c(N=Nc3ccc(Br)cc3Br)c(S(=O)(=O)O)cc2c1 | IC50 | strand transfer | 0.6 µM |
| CN(C)C(=O)N1CCC2(CC1)OCCCn1c2nc(C(=O)NCc2ccc(F)cc2)c(O)c1=O | Ki | binding / radiometric | 0.001–0.003 µM |
| CN1CCc2c(c(O)c3n2CCN(Cc2ccc(F)cc2)C3=O)C1=O | IC50 | strand transfer | <1 µM |
| O=C(Nc1ccc2c(O)c(N=Nc3cc(F)c(F)c(C(=O)O)c3F)c(S(=O)(=O)O)cc2c1)Nc1ccc2c(O)c(N=Nc3cc(F)c(F)c(C(=O)O)c3F)c(S(=O)(=O)O)cc2c1 | IC50 | strand transfer | 1 µM |
| O=C1c2c(O)c(=O)ccn2C(CO)CN1Cc1ccc(Cl)c(Cl)c1 | IC50 | ELISA | 0.01–0.1 µM |
| O=C(NCCCN1CCN(C(=O)/C=C/c2ccccc2)CC1)c1cc(O)c(O)c(O)c1 | IC50 | strand transfer | 12.38 µM |
| CC(C)Oc1cc(Cl)cc(CN2CCn3cc(-c4nccs4)c(=O)c(O)c3C2=O)c1 | IC50 | ELISA | 0.01–0.1 µM |
| CC(=O)N1CCC2(CC1)OCCCn1c2nc(C(=O)NCc2ccc(F)cc2)c(O)c1=O | Ki | binding / radiometric | 0.001–0.003 µM |
| O=C(O)[C@H]1O[C@@H](Oc2cc(O)c3c(=O)cc(-c4ccc(O)cc4)oc3c2)[C@H](O)[C@@H](O)[C@@H]1O | IC50 | - | 51.3 µg/mL |
| CS(=O)(=O)N1CCC2(CC1)OCCCn1c2nc(C(=O)NCc2ccc(F)cc2)c(O)c1=O | Ki | binding / radiometric | 0.001–0.003 µM |
| CC1=C(C#N)c2nc(N)c(C#N)c(C)c2/C1=C/c1ccc(-c2ccc(Cl)c(C(=O)O)c2)o1 | IC50 | 3′ processing | 9 µM |
| O=C(Nc1ccc2c(O)c(N=Nc3cccc(C(=O)O)c3)c(S(=O)(=O)O)cc2c1)C(=O)Nc1ccc2c(O)c(N=Nc3cccc(C(=O)O)c3)c(S(=O)(=O)O)cc2c1 | IC50 | strand transfer | 2.5 µM |

A second listing of 4 rows from above:

structure | endpoint | method | value
O=C(O)/C=C/c1ccc(N=Nc2c(S(=O)(=O)O)cc3cc(NC(=O)C(=O)Nc4ccc5c(O)c(N=Nc6ccc(/C=C/C(=O)O)cc6)c(S(=O)(=O)O)cc5c4)ccc3c2O)cc1 | IC50 | 3′ processing | 5 µM
CC(C)C[C@H](NC(=O)[C@H](CC(C)C)NC(=O)[C@H](Cc1cnc[nH]1)NC(=O)[C@H](CCC(=O)O)NC(=O)[C@H](CC(C)C)NC(=O)[C@@H](N)Cc1cnc[nH]1)C(=O)N[C@@H](Cc1ccccc1)C(=O)O | IC50 | strand transfer | >500 µM
Oc1c(C(=S)NCc2ccc(F)cc2)occc1=S | IC50 | strand transfer | 7.3 µM
O=C(O)/C=C/c1ccc(N=Nc2c(S(=O)(=O)O)cc3cc(S(=O)(=O)O)c(N=Nc4ccc(/C=C/C(=O)O)cc4)c(O)c3c2O)cc1 | IC50 | 3′ processing | 1.8 µM

Two numbers with a dash give a range or band. An empty or dashed field is not shown. ICn is the concentration giving n% inhibition.